The target in the assay is T1, Dimer of Gag-Pol polyprotein [501-599] (Human immunodeficiency virus 1, UniProt P03367).
T1 construct: 501-599
Put plainly: Protease Inhibition Assay. Conditions: pH 4.7; 37 °C.

For orientation: Ki means a dissociation constant, usually derived from enzyme kinetics or from competition with a known ligand. A lower Ki goes with tighter binding.

In turn, `COC(=O)N[C@H](C(=O)N[C@@H](Cc1ccccc1)[C@@H](O)CN(Cc1ccc(-c2ccccn2)cc1)NC(=O)[C@@H](NC(=O)OC)C(C)(C)C)C(C)(C)C` [CGP 73547] displayed a Ki of 0.48 nM.
